PubChem BioAssay AID504761 | Drosophila RNAi Screening Center | 2011
Test: 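Fly genes whose silencing reduces dengue virus type 2 infection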 (primary screen). Cell system: D.Mel-2 cells from Drosophila. Knock-down reagent: long dsRNA against Drosophila genes. Challenge: infection with dengue virus type 2; dose and infection time not stated. Detection: 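Cells stained for dengue envelope protein and imaged; percent of infected cells per well on duplicate plates, ranked by infection, with stained nuclei counted for cell number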. Reading the numbers: infection score: higher = more virus-infected cells; cell count: higher = more cells in the well. Hit rule: 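Low infection ranks in the two replicates (chance level up to 0.065) followed by a retest with a 1.5-fold or larger significant decrease, p below 0.05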. Meaning of the calls: active = confirmed: knock-down lowers infection; inactive = not picked or not confirmed.
In all, the deposit lists about 22,000 reagents; below is a random part of those with a known target gene and a result. Of all reagents, 116 (0.52%) got an active call. 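Calls depend on retest data that are not deposited; infection was ranked per plate without normalising between plates; the unit of the infection score is not given.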 Raw values vary from plate to plate and are shown uncorrected. Not given: the amount of reagent, the time to read-out.

gene | DRSC id | infection score, replicate 1 | infection score, replicate 2 | cell count, replicate 1 | cell count, replicate 2 | outcome
Dhpr | DRSC11135 | 1.45 | 1.54 | 5712 | 5766 | inactive
Sem1 | DRSC02282 | 9.64 | 24.4 | 1732 | 3684 | inactive
Sem1 | DRSC30061 | 6.38 | 13.5 | 5239 | 4918 | inactive
TTLL3A | DRSC02143 | 3.94 | 1.43 | 6217 | 6760 | inactive
TTLL3A | DRSC28462 | 14.4 | 24.4 | 2211 | 3637 | inactive
mRpS18B | DRSC02107 | 8.8 | 12.4 | 5861 | 379 | inactive
qtc | DRSC02364 | 16.3 | 2.68 | 5083 | 6379 | inactive
qtc | DRSC02365 | 2.1 | 1.46 | 5991 | 6641 | inactive
qtc | DRSC27377 | 38.9 | 17.2 | 3106 | 6548 | inactive
Gld | DRSC12595 | 3.02 | 6.01 | 6685 | 6856 | inactive
CG9702 | DRSC16540 | – | 1.5 | 356 | 734 | inactive
CG33062 | DRSC22195 | 3.13 | 1.34 | 6653 | 6395 | inactive
CG33062 | DRSC27501 | 5.15 | 4.03 | 6413 | 6429 | inactive
klu | DRSC11357 | 2.65 | 2.57 | 5877 | 6413 | inactive
klu | DRSC26367 | 8.06 | 9.17 | 4590 | 6487 | inactive
acs | DRSC08185 | 5.51 | 6.31 | 6548 | 6452 | inactive
acs | DRSC27629 | 11.1 | 17.2 | 6407 | 6419 | inactive
side-V | DRSC04189 | 4.28 | 3.23 | 6265 | 6107 | inactive
Acyp2 | DRSC15336 | 7.37 | 6.81 | 5743 | 6591 | inactive
CG15082 | DRSC06513 | 2.57 | 0.67 | 6184 | 6449 | inactive
CG15082 | DRSC27197 | 13.4 | 8.58 | 6715 | 2191 | inactive
ppk18 | DRSC02216 | 4.68 | 5.97 | 6524 | 6531 | inactive

Quoted from the entries so far for reference:
gene | DRSC id | infection score, replicate 1 | infection score, replicate 2 | cell count, replicate 1 | cell count, replicate 2 | outcome
acs | DRSC08185 | 5.51 | 6.31 | 6548 | 6452 | inactive
acs | DRSC27629 | 11.1 | 17.2 | 6407 | 6419 | inactive
side-V | DRSC04189 | 4.28 | 3.23 | 6265 | 6107 | inactive

Continued.
gene | DRSC id | infection score, replicate 1 | infection score, replicate 2 | cell count, replicate 1 | cell count, replicate 2 | outcome
Or43b | DRSC07486 | 14.6 | 13.8 | 5111 | 6248 | inactive
Or43b | DRSC29565 | – | 17.5 | 407 | 5627 | inactive
Rpn6 | DRSC07541 | 4.38 | 3.71 | 640 | 647 | inactive
CG2861 | DRSC18229 | 3.8 | 4 | 5654 | 5627 | inactive
CG7916 | DRSC01901 | 13.3 | 9.65 | 4427 | 6002 | inactive
CG13551 | DRSC21847 | 2.13 | 0.88 | 6852 | 6453 | inactive
ari-1 | DRSC20308 | 1.94 | 6.7 | 7051 | 6990 | inactive
ari-1 | DRSC21603 | 6.05 | 22.6 | 5698 | 3818 | inactive
ari-1 | DRSC27556 | 4.78 | 16.2 | 6864 | 6673 | inactive
CR15821 | DRSC08481 | 2.65 | 3.41 | 6254 | 5627 | inactive
CR15821 | DRSC24584 | 4.51 | 2.17 | 6053 | 6503 | inactive
ATPsynGL | DRSC03027 | 3.66 | 1.46 | 5896 | 6796 | inactive
ATPsynGL | DRSC28550 | 17.5 | 13.5 | 5286 | 5089 | inactive
fuss | DRSC17200 | 7.35 | 3.39 | 6191 | 6871 | inactive
fuss | DRSC21452 | 2.93 | 15.9 | 5486 | 4309 | inactive
CG7406 | DRSC20042 | 2.93 | 1.4 | 4260 | 6003 | inactive
CG7406 | DRSC28709 | 9.1 | 16.4 | 5991 | 6062 | inactive
Spn75F | DRSC09589 | 0.74 | 1.03 | 5911 | 5804 | inactive
snRNP-U1-70K | DRSC03612 | 12.9 | 29.8 | 5917 | 5373 | inactive
snRNP-U1-70K | DRSC22071 | 4.6 | 2.09 | 4695 | 4308 | inactive
snRNP-U1-70K | DRSC28803 | 11.9 | 6.41 | 1793 | 1170 | inactive
CG4770 | DRSC15639 | 2.09 | 5.09 | 6208 | 5624 | inactive
CG9689 | DRSC18440 | 2.1 | 4.45 | 6675 | 6969 | inactive
CG9689 | DRSC28305 | 2.93 | 12.1 | 1466 | 1558 | inactive
Dscam1 | DRSC07407 | 5.92 | 9.69 | 5579 | 6399 | inactive
Dscam1 | DRSC21562 | 1.95 | 4.44 | 6262 | 6733 | inactive
Dscam1 | DRSC22383 | 1.21 | 2.7 | 6223 | 6045 | inactive
Dscam1 | DRSC29101 | 6.3 | 21 | 5092 | 5690 | inactive
eIF3f1 | DRSC12328 | 6.15 | 7.98 | 3351 | 3595 | inactive
eIF3f1 | DRSC26155 | 6.27 | 10.2 | 3141 | 4358 | inactive
Bka | DRSC02757 | 9.22 | 9.29 | 5685 | 5930 | inactive
CG8945 | DRSC20129 | 1.63 | 1.93 | 6502 | 6645 | inactive
Miga | DRSC17821 | 1.15 | 1.69 | 6769 | 6570 | inactive
Camp | DRSC07004 | 13.9 | 7.42 | 6064 | 3533 | inactive
CG32432 | DRSC11744 | 4.67 | 6.7 | 6599 | 6507 | inactive
r2d2 | DRSC03014 | 4.72 | 3.8 | 6606 | 6579 | inactive
r2d2 | DRSC29562 | 18.2 | 14.4 | 4956 | 3899 | inactive
